{"source": "paper PMC3781045", "target": "T1, rZur (ZurPA, Np20) (UniProt Q9HT74)", "T1 sequence (looked up)": "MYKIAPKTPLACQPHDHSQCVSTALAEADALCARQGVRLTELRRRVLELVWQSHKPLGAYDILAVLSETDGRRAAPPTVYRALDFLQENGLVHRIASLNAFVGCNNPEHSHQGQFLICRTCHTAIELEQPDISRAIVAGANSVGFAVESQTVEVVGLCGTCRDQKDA", "assay": "competition with a labelled probe", "conditions": "100x unlabeled znuA promoter as specific competitor, 1 uM ZnCl2; 10 mM Tris-HCl pH 8.0, 40 mM KCl, 10 mM MgCl2, 1 mM DTT, 5% glycerol, 1 uM ZnCl2, 0.5 ug salmon sperm DNA; room temperature 30 min; gel at 4 C; recombinant protein; residues 1-167; protein details: N-terminal Strep-tag II; label: 32P (5' end, T4 PNK); probe letters rebuilt from the primers and the genome", "note": "The exact form of at least one protein or probe is not confirmed. At least one verdict rests on a figure or table, not on a statement of the authors. Protein sequences can lack the tags named with them.", "data": [{"sequence": "CGGCGAAGCCAGCAGGAACAGGGCGAAGCAGGCGGACAGCAGGGCAAAGGGACGCAGGGTCACGGCGGCACTCACATGAAAGGTGGTTAGCGGGTAATATAATAACGTCTCTACCCTCGAGCGTCGCAGCCCATGTACAAGATTGCGCCCAAGACCCCGCTGGCCTGCCAGCCCCATGACCACAGCCAGTGCGTCAGCA (double strand) [znuA promoter fragment]", "values": [{"measurement": "binding result", "value": "binds"}]}]}
